Measured values from several laboratories, pooled; numbers as filed in NIAID ChemDB.

Shared fields: whole-cell or culture tests; species: HIV-2; cells: MT-4; read-out: EC50

Lines come from different laboratories, so protocols vary. An empty or dashed field is not shown. Two numbers with a dash give a range or band. ECn is the concentration giving n% inhibition of infection, replication or growth.

structure | strain or isolate | method | result
Clc1ccc(-c2nn3c(-c4ccc(Cl)c(Cl)c4)nnc3s2)cc1Cl | ROD | MTT | >67.8 µg/mL
CC(C)[C@H](NC(=O)[C@H](NCc1ccc(Cl)cc1)[C@H](O)[C@H](Cc1ccccc1)NC(=O)[C@@H](NC(=O)OCc1ccccc1)C(C)(C)C)C(=O)NCc1nc2ccccc2[nH]1 | ROD | p24 | 0.3 µM
Cc1cc(O)ccc1O | ROD | cytopathic effect / MTT | >100 µg/mL
Cc1cc(S(N)(=O)=O)ccc1NC(=O)COc1ccc(Cl)cc1C(=O)c1cccc(C#N)c1 | - | cytopathic effect / propidium iodide | 1–3 µM
COc1ccc(Nc2nn3c(=O)c4ccccc4nc3s2)cc1 | ROD | cytopathic effect / MTT | >97.4 µg/mL
Cc1cn([C@@H]2OC3CN[C@@]4(OCC(C)C)CS(=O)(=O)O[C@@]34[C@H]2O[Si](C)(C)C(C)(C)C)c(=O)[nH]c1=O | ROD | - | >10 µM
CCCCN1C(=O)[C@@H](Cc2ccccc2)NC1=S | - | cytopathic effect / XTT | <10 µg/mL
Oc1ccc(-c2nnc3sc(-c4ccco4)nn23)c(Cl)c1Cl | ROD | MTT | >27.2 µg/mL
CC(C)[C@H](NC(=O)OCc1ccccc1)C(=O)N[C@@H](Cc1ccccc1)[C@@H](O)[C@@H](NCc1ccccc1)C(=O)N[C@H](C(=O)NCc1nc2ccccc2[nH]1)C(C)C | ROD | p24 | 1.1 µM
O=c1ncc2nc(-c3ccccn3)c(-c3ccccn3)nc2[nH]1 | ROD | cytopathic effect / MTT / absorbance | >82.3 µM
CCCCCO[C@]12CS(=O)(=O)O[C@@]13[C@@H](CN2)O[C@@H](n1cc(C)c(=O)[nH]c1=O)[C@@H]3O | ROD | - | >250 µM
Nc1nc(=O)n([C@H]2CC[C@@H](CO)O2)cc1Cl | LAV-2 | cytopathic effect / trypan blue | >500 µM
Cc1cccc(O)c1O | ROD | cytopathic effect / MTT | 86 µg/mL
O=C(NCCc1ccccc1)Nc1nncs1 | - | RT activity | <1 µg/mL
CCCOC12CS(=O)(=O)OC13[C@@H](CN2)O[C@@H](n1cc(C)c(=O)[nH]c1=O)[C@@H]3O[Si](C)(C)C(C)(C)C | ROD | - | >10 µM
O=C1[C@@H](Cc2ccccc2)NC(=S)N1Cc1ccccc1 | - | cytopathic effect / XTT | <10 µg/mL
O=c1[nH]cnc2ncc(-c3cccs3)nc12 | ROD | cytopathic effect / MTT / absorbance | >48.22 µM
O=C(O)c1ccc(O)c(O)c1 | ROD | cytopathic effect / MTT | 8 µg/mL
C=CCNc1nn2c(=O)c3ccccc3nc2s1 | ROD | cytopathic effect / MTT | 97.1 µg/mL
Nc1ncc2ncn(C[C@H](CF)OCP(=O)(O)O)c2n1 | LAV-2 | cytopathic effect | >300 µM
Clc1ccc(-c2nnc3sc(-c4cnccn4)nn23)cc1Cl | ROD | MTT | >2.11 µg/mL
O=C(CSc1nc2nc(C3=CCC=C=N3)c(-c3ccccn3)nc2c(=O)[nH]1)c1ccccc1 | ROD | cytopathic effect / MTT / absorbance | >41.88 µM
Nc1ncnc2c1ncn2C[C@@H](CO)OCP(=O)(O)O | LAV-2 | cytopathic effect | >13 µM
Nc1ccn([C@H]2CC[C@@H](CO)O2)c(=O)n1 | LAV-2 | cytopathic effect / trypan blue | 0.33 µM
O=C(NCCc1ccccc1)Nc1cncc(Cl)n1 | - | cytopathic effect / XTT | <1 µg/mL
NC1=NC(N)c2nc(-c3ccccn3)c(-c3ccccn3)nc2N1 | ROD | cytopathic effect / MTT / absorbance | >10.52 µM
CC(C)[C@H](NC(=O)[C@H](NCc1ccccc1)[C@H](O)[C@H](Cc1ccccc1)NC(=O)[C@@H](NC(=O)OCc1ccccc1)C(C)(C)C)C(=O)NCc1ccccc1 | ROD | p24 | 1.17 µM
Oc1ccc(-c2nn3c(-c4ccc(O)c(Cl)c4Cl)nnc3s2)c(Cl)c1Cl | ROD | MTT | >67.8 µg/mL
CC(C)[C@H](NC(=O)CCc1nc2ccccc2[nH]1)C(=O)N[C@@H](Cc1ccccc1)[C@@H](O)[C@@H](NCc1ccccc1)C(=O)N[C@H](C(=O)NCc1ccccc1)C(C)C | EHO | p24 | 0.62 µM
O=C(O)/C=C/c1ccc(O)c(O)c1 | ROD | cytopathic effect / MTT | 6 µg/mL
Cc1ccnc(NC(=O)NCCc2ccccc2)n1 | - | RT activity | >10 µg/mL
O=c1[nH]c(=O)c2nc(-c3ccccn3)c(-c3ccccn3)nc2[nH]1 | ROD | cytopathic effect / MTT / absorbance | >103 µM
Nc1ncnc2c1ncn2C[C@H](CF)OCP(=O)(O)O | LAV-2 | cytopathic effect | 211 µM
Cc1cc(S(N)(=O)=O)ccc1NC(=O)COc1ccc(Cl)cc1C(=O)c1cc(F)cc(F)c1 | - | cytopathic effect / propidium iodide | 1–3 µM
O=C(O)Cc1cc(O)ccc1O | ROD | cytopathic effect / MTT | 9 µg/mL
Nc1ccn([C@H]2C=C[C@@H](CO)O2)c(=O)n1 | ROD | cytopathic effect / trypan blue | 0.69 µM
O=C1/C(=C\c2ccccc2)N(CCc2cccs2)C(=S)N1CCc1cccs1 | ROD | MTT | >59.38 µg/mL
Cc1nc(NC(=O)NCCc2ccccc2)sc1C | - | RT activity | <1 µg/mL
Clc1ccc(-c2nnc3sc(-c4cccs4)nn23)cc1Cl | ROD | MTT | >92.7 µg/mL
O=C1/C(=C\c2ccc(F)cc2)N(CCc2cccs2)C(=S)N1CCc1cccs1 | ROD | MTT | 93.1 µg/mL
Cc1cn([C@@H]2O[C@@H]3CN[C@@]4(OCc5ccccc5)CS(=O)(=O)O[C@@]34[C@H]2O)c(=O)[nH]c1=O | ROD | - | >250 µM
Nc1cc(O)ccc1-c1nnc2sc(-c3cc4ccccc4oc3=O)nn12 | ROD | MTT | >108.3 µg/mL

Repeating the final 6 entries:

structure,strain or isolate,method,result
O=C1/C(=C\c2ccccc2)N(CCc2cccs2)C(=S)N1CCc1cccs1,ROD,MTT,>59.38 µg/mL
Cc1nc(NC(=O)NCCc2ccccc2)sc1C,-,RT activity,<1 µg/mL
Clc1ccc(-c2nnc3sc(-c4cccs4)nn23)cc1Cl,ROD,MTT,>92.7 µg/mL
O=C1/C(=C\c2ccc(F)cc2)N(CCc2cccs2)C(=S)N1CCc1cccs1,ROD,MTT,93.1 µg/mL
Cc1cn([C@@H]2O[C@@H]3CN[C@@]4(OCc5ccccc5)CS(=O)(=O)O[C@@]34[C@H]2O)c(=O)[nH]c1=O,ROD,-,>250 µM
Nc1cc(O)ccc1-c1nnc2sc(-c3cc4ccccc4oc3=O)nn12,ROD,MTT,>108.3 µg/mL